Pooled drug test results. Numbers come from NIAID ChemDB, via PubChem.

Common to all: tests in culture; agent: Herpes simplex virus 1; read by: cytopathic effect; read-out: EC50

Rows are shuffled and stem from different studies. ECn is the concentration giving n% inhibition of infection, replication or growth. Blank or dashed fields: not listed here.

SMILES | strain | cell line | value
Nc1ncnc2c1ncn2CCOCP(=O)(O)O | 3 strains | Primary rabbit kidney cells | 7 µg/mL
Nc1nccc2c1ncn2[C@@H]1C[C@H](CO)[C@@H](O)[C@H]1O |  | PRK | 200 µg/mL
O=C(O)P(=O)(O)O |  | GMK | >12.5 µg/mL
O=C(O)CP(=O)(O)O | KOS | HEL | 14.7 µg/mL
Cc1cccc2c1OP(=O)(OCCOCn1cnc3c(=O)[nH]c(N)nc31)OC2 | KOS | E6SM | 0.8 µg/mL
CCC1[C@H](OC2O[C@H](CO)[C@@H](O)[C@H](O)[C@H]2O)OC=C(C(=O)O)[C@H]1CC(=O)OCCc1ccc(O)cc1 | 15577 | VERO | >250 µM
CCCCC[C@H](CC(=O)NO)C(=O)N[C@H](C(=O)N1CCC[C@H]1CO)C(C)C | KOS | HeLa | >200 µg/mL
C=CCCc1cn([C@@H]2O[C@H](CO)[C@@H](O)[C@@H]2O)c(=O)[nH]c1=O | VR-3 | HELF | 32 µg/mL
C/C=C1\[C@H](OC2O[C@H](CO)[C@@H](O)[C@H](O)[C@H]2O)OC=C(C(=O)O)[C@H]1CC(=O)OCCc1ccc(O)cc1 | 15577 | VERO | >250 µM
Nc1nc(N)c2ncn(CC(CO)OCP(=O)(O)O)c2n1 | (TK-) 2 strains | Primary rabbit kidney cells | 10 µg/mL
CC1=C(C)[C@](CO)(c2ccccc2)C[C@H]1n1cnc2c(N)ncnc21 |  | VERO | 78.5 µg/mL
Cc1cccc2c1OP(=O)(OCCOCn1cnc3c(=O)[nH]c(N)nc31)OC2 | B2006 (TK-) | VERO | 0.51 µM
Cc1cccc2c1OP(=O)(OC[C@@H]1C=C[C@H](n3cnc4c(NC5CC5)nc(N)nc43)C1)OC2 | TK-deficient acyclovir-resistant | E6SM | 5.6 µg/mL
CC(C)=CCc1c(O)cc(O)c2c1O[C@H](c1ccc(O)cc1O)CC2=O | 15577 | VERO | 1.6 µg/mL
OC[C@H]1O[C@@H](n2cnc3cc(Cl)c(Cl)cc32)[C@@H](O)[C@@H]1O | KOS | E6SM | >10 µg/mL
Nc1nc2c(ncn2CCC(CO)CO)c(=O)[nH]1 | KOS HPMPC-resistant | HEL | 0.026 µg/mL
Nc1nc(NC2CC2)c2ncn([C@H]3C=C[C@@H](CO)C3)c2n1 | TK-deficient acyclovir-resistant | E6SM | >40 µg/mL
Nc1ncnc2c1ncn2CCOCP(=O)(O)O | KOS PFA-resistant | HEL | 66.7 µg/mL
Nc1nc2c(ncn2COC(CO)CO)c(=O)[nH]1 | PCV-resistant/B | HEL | 0.85 µg/mL
CC(C)=CCC/C(C)=C/CC/C(C)=C/Cc1c(O)cc(O)c2c(=O)cc(-c3ccc(O)cc3O)oc12 | 15577 | VERO | >100 µg/mL
CC(C)[Si]1(C(C)C)OC[C@H]2O[C@@H](n3cnc4cc(Cl)c(Cl)cc43)[C@@H](O)[C@H]2O[Si](C(C)C)(C(C)C)O1 | KOS | E6SM | >100 µg/mL
CC1(C)Oc2cc3oc(-c4cc(O)cc(OC5OC[C@@H](O)[C@H](O)[C@H]5O)c4)cc3cc2CC1O | 15577 | VERO | 75.4 µg/mL
O=C(O)P(=O)(O)O | TK- | VERO | >79.4 µM
O=C(O)Cc1ccc(O)c(O)c1 | B2006 (TK-) | E6SM | 12 µg/mL
CC(C)=CC1Oc2cc(O)ccc2-c2oc3c4c(cc(O)c3c(=O)c21)OC(C)(C)C=C4 | 15577 | VERO | >100 µg/mL
Nc1nccc2c1ncn2[C@@H]1C[C@H](CO)[C@@H](O)[C@H]1O | KOS | E6SM | 200 µg/mL
O=C(O)c1cc(O)c(O)c(O)c1 | B2006 (TK-) | E6SM | 20 µg/mL
O=C(O)P(=O)(O)O | KOS | HEL | 32 µg/mL
Nc1ncnc2c1ncn2CCOCP(=O)(O)O | KOS |  | 26 µM
Nc1nc2c(ncn2COCCO)c(=O)[nH]1 | KOS | VERO | 46 µg/mL
Nc1ncnc2c1ncn2[C@@H]1O[C@H](CO)C[C@@H]1O | KOS | VERO | 21.6 µg/mL
CN[C@@H]1[C@@H](O)[C@@H](O[C@@H]2[C@@H](O)[C@H](O[C@H]3O[C@H](CN)[C@@H](O)[C@H](O)[C@H]3N)[C@@H](N)C[C@H]2N)OC[C@]1(C)O | KOS | HeLa | >100 µg/mL
O=c1[nH]c(=O)n([C@H]2C[C@H](O)[C@@H](CO)O2)cc1CCCl | TK- | VERO | >34.2 µM
Nc1nccc2c1ncn2[C@@H]1C=C(CO)[C@@H](O)[C@H]1O | KOS | PRK | >400 µg/mL
O=c1ccn(CC(CO)OCP(=O)(O)O)c(=O)[nH]1 | 3 strains | Primary rabbit kidney cells | >400 µg/mL
COC(=O)P(=O)(O)OC[C@H]1O[C@@H](n2cc(CCCl)c(=O)[nH]c2=O)C[C@@H]1O | BRAND | VERO | >24.2 µM
Cc1ncc([N+](=O)[O-])n1CCO | KOS | HeLa | >200 µg/mL
CC(=O)Oc1ccc([C@@H]2CC(=O)c3c(cc(OC(C)=O)c(-c4c(OC(C)=O)cc5c(c4OC(C)=O)C(=O)C[C@@H](c4ccc(OC(C)=O)cc4)O5)c3OC(C)=O)O2)cc1 | E-377 | HFF | >4 µg/mL
Nc1ncnc2c1ccn2[C@@H]1O[C@H](CO)[C@H](O)[C@H]1O | McIntyre | PRK | 0.2 µg/mL
CCOC(=O)CP(=O)(OC)OC[C@H]1O[C@@H](n2cc(CCCl)c(=O)[nH]c2=O)C[C@@H]1O | TK- | VERO | >66 µM
Nc1nc(N)c2ncn(CCOCP(=O)(O)O)c2n1 | ACV-resistant | HEL | 5.7 µg/mL
CCc1cn([C@H]2C[C@H](O)[C@@H](COP(=O)(O)C(N)=O)S2)c(=O)[nH]c1=O | L2 acyclovir-susceptible | VERO | 1.3 µM
Cc1cn(CCC(CO)CO)c(=O)[nH]c1=O | KUPKA | VERO | >593 µM
O=C(O)CP(=O)(O)O | KOS | VERO | 22 µg/mL
OC[C@H]1O[C@H](n2cnc3cc(Cl)c(Cl)cc32)[C@@H](O)[C@H]1O | KOS | E6SM | >200 µg/mL
Nc1nc2c(ncn2COCCO)c(=O)[nH]1 | KUPKA | VERO | 0.62 µM
OCCOC([C@H](O)CO)n1cnc2cc(Cl)c(Cl)cc21 | KOS | E6SM | >400 µg/mL
C[C@H](Cn1cnc2c(N)ncnc21)OCP(=O)(O)O | KOS |  | >350 µM
Nc1ccn([C@@H]2C[C@H](CO)[C@@H](O)[C@H]2O)c(=O)n1 | B2006 (TK-) | PRK | 4 µg/mL
O=C(CP(=O)(O)O)OC[C@H]1O[C@@H](n2cc(CCCl)c(=O)[nH]c2=O)C[C@@H]1O | BRAND | VERO | >24.2 µM
Nc1ncnc2c1ncn2C[C@H]1COP(=O)(O)CO1 | 3 strains | Primary rabbit kidney cells | 2 µg/mL
COc1ccc2c(c1)COP(=O)(OC[C@@H]1C=C[C@H](n3cnc4c(NC5CC5)nc(N)nc43)C1)O2 | TK-deficient acyclovir-resistant | E6SM | 22 µg/mL
Nc1nc2c(ncn2COC(CO)CO)c(=O)[nH]1 | K1 | HEF | 0.1 µM
O=C(O)c1cc(O)ccc1O | KOS | E6SM | 20 µg/mL
CC1CC(C)(O)CC(C(O)CC2CC(=O)NC(=O)C2)C1=O | KOS | HeLa | >200 µg/mL
COC(=O)[C@]1(O)C[C@@H]2O[C@@]1(C)n1c3ccccc3c3c4c(c5c6ccccc6n2c5c31)C(=O)NC4 | K1 | HEF | >25 µM
Nc1ncc2c(ncn2COC(CO)CO)n1 | KOS PMEDAP-resistant | HEL | 1.73 µg/mL
CC1(C)[C@@H]2CC[C@@]1(C)C(=O)[C@H]2Br | KOS | HeLa | >200 µg/mL
Cc1cn(CCC(CO)COP2(=O)OCc3ccccc3O2)c(=O)[nH]c1=O | KUPKA | VERO | >364 µM
O=c1[nH]c(=O)n([C@@H]2O[C@H](CO)[C@@H](O)[C@@H]2O)cc1/C=C/Br | KOS | HEL | 0.0065 µg/mL
Nc1nc(NC2CC2)c2ncn([C@H]3C=C[C@@H](COP4(=O)OCc5ccccc5O4)C3)c2n1 | TK-deficient acyclovir-resistant | E6SM | 10 µg/mL
CCOC(=O)P(=O)(OC)OC[C@H]1O[C@@H](n2cc(CCCl)c(=O)[nH]c2=O)C[C@@H]1O | TK- | VERO | >68.1 µM
CC1=C(C)[C@](CO)(c2ccccc2)C[C@H]1n1ccc(N)nc1=O |  | VERO | >100 µg/mL
NC(=O)c1ccnc([C@@H]2O[C@H](CO)[C@@H](O)[C@H]2O)c1 |  | PRK | >400 µg/mL
COP(=O)(CC(=O)OC[C@H]1O[C@@H](n2cc(CCCl)c(=O)[nH]c2=O)C[C@@H]1O)OC | BRAND | VERO | >6.8 µM
Nc1nc2c(ncn2CCC(CO)CO)c(=O)[nH]1 | KOS | VERO | >100 µg/mL
Nc1ccn(C[C@H]2COP(=O)(O)CO2)c(=O)n1 | KOS | VERO | 1.45 µg/mL
Cc1cc(O)cc(O)c1CC(=O)O | B2006 (TK-) | E6SM | 40 µg/mL
Nc1ncnc2c1ncn2C[C@@H](CO)OCP(=O)(O)O | KOS | HEL | 0.11 µg/mL
O[C@@H]1CC(n2cnc3cc(Cl)c(Cl)cc32)OC[C@@H]1O | KOS | E6SM | >100 µg/mL
CCOC(=O)CP(=O)(OC)OC[C@H]1O[C@@H](n2cc(I)c(=O)[nH]c2=O)C[C@@H]1O | BRAND | VERO | >1.9 µM
Nc1ccn(C[C@@H](CO)OCP(=O)(O)O)c(=O)n1 | 3 strains | Primary rabbit kidney cells | 4 µg/mL
Nc1ncnc2c1ccn2[C@@H]1O[C@H](CO)[C@@H](O)[C@@H]1O | KOS | PRK | 125 µg/mL
O=C(O)P(=O)(O)O | C137-101 (TK-) |  | 52 µg/mL
N#Cc1cn([C@H]2C[C@H](O)[C@@H](CO)O2)c2ncnc(N)c12 | KOS | PRK | ≥1 µg/mL
C[C@H](NP(=O)(N[C@@H](C)C(=O)OC(C)(C)C)OC[C@H]1O[C@@H](n2cnc(C(N)=O)c2N)[C@H](O)[C@@H]1O)C(=O)OC(C)(C)C | KOS | HEL | >100 µM
C[C@H](COc1cc(N)nc(N)n1)OCP(=O)(O)O | KOS |  | 58 µM

8 of the rows above, restated:

SMILES | strain | cell line | value
COC(=O)P(=O)(O)OC[C@H]1O[C@@H](n2cc(CCCl)c(=O)[nH]c2=O)C[C@@H]1O | BRAND | VERO | >24.2 µM
CCOC(=O)CP(=O)(OC)OC[C@H]1O[C@@H](n2cc(I)c(=O)[nH]c2=O)C[C@@H]1O | BRAND | VERO | >1.9 µM
Nc1nc(N)c2ncn(CC(CO)OCP(=O)(O)O)c2n1 | (TK-) 2 strains | Primary rabbit kidney cells | 10 µg/mL
CC1(C)Oc2cc3oc(-c4cc(O)cc(OC5OC[C@@H](O)[C@H](O)[C@H]5O)c4)cc3cc2CC1O | 15577 | VERO | 75.4 µg/mL
Nc1nc2c(ncn2COCCO)c(=O)[nH]1 | KUPKA | VERO | 0.62 µM
Cc1cccc2c1OP(=O)(OCCOCn1cnc3c(=O)[nH]c(N)nc31)OC2 | KOS | E6SM | 0.8 µg/mL
CC1CC(C)(O)CC(C(O)CC2CC(=O)NC(=O)C2)C1=O | KOS | HeLa | >200 µg/mL
CC(C)=CCc1c(O)cc(O)c2c1O[C@H](c1ccc(O)cc1O)CC2=O | 15577 | VERO | 1.6 µg/mL